Results as given in US20150139959A1 (priority 2009, published 2015).

Assays:
Caco-2 cells = assay: MTT bioassay of cell viability (metabolic activity); assay type: cell-based, Human; conditions: 48 h incubation
3T3 mouse fibroblasts = assay: Cell proliferation ELISA, BrdU incorporation (DNA synthesis); assay type: cell-based; conditions: 24 h incubation + 12 h BrdU labeling

**Q.** How did the “MTT bioassay IC50 (95% Confidence Interval)” value (Caco-2 cells) turn out when 3-keto-DON was run?
**A.** 1.24 (0.942, 1.62) μg/mL

**Q.** And the “BrdU bioassay IC50 (95% Confidence Interval)” value (3T3 mouse fibroblasts)?
**A.** 1.08 (0.681, 1.72) μg/mL
